Measurements: the supplement of paper PMC9931576
Human monoclonal antibodies against the spike receptor-binding domain (heavy:light variable regions). IC50 against pseudoviruses bearing the spike of naturally observed variants; lower = stronger; >10 µg/ml means not reached at the top dose. No active / inactive call. The stated detection limit is 0.0005 µg/ml; values near or below 0.001 µg/ml lie at the floor of the assay.

B1: BD55-5557 (protein)
chain 1: QVQLVESGGGVVQPGRSLRLSCAASGFTFRSYAMHWVRQAPGKGLEWVAVIWHDGSNKYYADSVKGRFTISRDNSENTLYLQMNSLRAEDTAVYYCARATHSYCGGECYFPDGYWGQGTLVTVSS
chain 2: DILMTQSPSTLSASVGDRVTITCRASQSISSWLAWYQQKPGKAPKLLIYQASSLESGVPSRFSGSGSGTEFTLTISSLQPDDFATYYCQQYNSYWTFGQGTKVEIK
B2: BD55-1073 (protein)
chain 1: QVQLVQSGAEVKKPGASVKVSCKASGYTFTSDYIHWVRQAPGQGLEWVGMINPNGAGTDYAQKFQGRVTMTRDRSTNTVYMEFSSLKSDDTAVYFCASLHSNFGVMLIPNDAFDIWGQGTVLTVSS
chain 2: QSVLTQPPSVSAAPGQKVTISCSGSSSNIGNNFVSWYRQLPGTVPKLLIYDNDKRPSGIPDRFSGSKSGTSATLGITGLQTGDEADYYCATWDSSPSSPFVFGTGTKVTVL
B3: BD55-5565 (protein)
chain 1: QVHLVQSGSDLKKPGASVKVSCKASGYTFTNYAINWVRQAPGQGLKWMGWINPDTGIPTYAQGFTGRFVFSFDTSVNTAYLQIRSLKTEDTAVYYCARDANQWPRNQWFAPWGQGTLVTVSS
chain 2: DIVMTQSPDSLAVSLGERATINCKSSHSLLSSPSNKNDLAWYQQKPGQPPKLLIYWASTRESGVPDRFSGSGAGTDFTLTISSLQPEDVAVYYCQQYYSTPLTFGGGTKVEIK
B4: BD55-5577 (protein)
chain 1: EVQLVESGGGLVQPGGSLRLSCAASGFTFSKYWMSWVRQAPGRGLEWVANIKEDGSEKNYVDSVKGRFTISRDNAKNSLYLHMNSLRVEDTAVYYCARAPVFYEILTPEYFDTWGQGTLVTVSS
chain 2: SYELTQPPSVSVSPGQTARITCSGDALPTQYTYWYQQKPGQAPMLVIYKDSERPSGIPERFSGSNSGKTVTLTISGVQAEDEADYYCQSADSRSWVFGGGTKLTVL
B5: BD55-5580 (protein)
chain 1: QVQLVQSGAEVKKPGASVKVSCKASGFNFTIYSISWVRQAPGQGLEWMGRIGAYNGDTNYAQKVQGRVTMTTDTFTNTAYMELRGLTSDDTAVFYCAREYCTSYGCYDLDSWGQGTLVTVSS
chain 2: QSVLTQPPSASGTPGQRVTISCSGSISNIGSNFVYWYQQFPGTAPKLLIYRSNQRPSGVPDRFSGSKSGTSASLAISGLRSEDEADYYCAAWDDILTGRVFGGGTKLTVL
B6: BD55-5581 (protein)
chain 1: QVQLVQSGPEVKKPGASVKVSCKASGYAFTSQYIHWVRLAPGQGLQWMGIINPGAGSTTYAQSFRGRVTMTSDTSTSTVYLELSSLRNEDTAVYYCARDRVFVPAASDLDYWGQGTLVTVSS
chain 2: EIVLTQSPATLSLSPGERATLSCRASQSVGTYLAWYQQKPGQAPRLLIYDASNRATGVPARFSGSGSGTDFTLTISSLEPEDFAVYYCQQRSHWPPTWTFGQGTKVEIK

target: SARS-CoV-2 Omicron BA.1 spike pseudovirus; assay: pseudovirus neutralization IC50; higher = weaker neutralization
Procedure: (§1)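 Single-round VSV luciferase pseudovirus mixed with antibody dilutions for 1 h and put on Huh-7 cells for about a day; IC50 from the dose curve.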

Binder	pseudovirus neutralization IC50
B1	6.04 µg/mL
B2	0.81 µg/mL
B3	> 10 µg/mL
B4	> 10 µg/mL
B5	> 10 µg/mL
B6	> 10 µg/mL

target: SARS-CoV-2 Omicron BA.2 spike pseudovirus; assay: as above
Procedure: as §1

Binder	pseudovirus neutralization IC50
B1	8.53 µg/mL
B2	0.933 µg/mL
B3	> 10 µg/mL
B4	> 10 µg/mL
B5	> 10 µg/mL
B6	> 10 µg/mL

target: SARS-CoV-2 Omicron BA.2.75 spike pseudovirus; assay: as above
Procedure: as §1

Binder	pseudovirus neutralization IC50
B1	5.47 µg/mL
B2	0.75 µg/mL
B3	> 10 µg/mL
B4	> 10 µg/mL
B5	> 10 µg/mL
B6	> 10 µg/mL

target: SARS-CoV-2 Omicron BA.5 spike pseudovirus; assay: as above
Procedure: as §1

Binder	pseudovirus neutralization IC50
B1	6.18 µg/mL
B2	> 10 µg/mL
B3	> 10 µg/mL
B4	> 10 µg/mL
B5	> 10 µg/mL
B6	> 10 µg/mL

target: SARS-CoV-2 Omicron BQ.1.1 spike pseudovirus; assay: as above
Procedure: as §1

Binder	pseudovirus neutralization IC50
B1	4.41 µg/mL
B2	> 10 µg/mL
B3	> 10 µg/mL
B4	> 10 µg/mL
B5	> 10 µg/mL
B6	> 10 µg/mL

target: SARS-CoV-2 Omicron XBB spike pseudovirus; assay: as above
Procedure: as §1

Binder	pseudovirus neutralization IC50
B1	> 10 µg/mL
B2	> 10 µg/mL
B3	> 10 µg/mL
B4	> 10 µg/mL
B5	> 10 µg/mL
B6	> 10 µg/mL

target: SARS-CoV-2 early D614G spike pseudovirus; assay: as above
Procedure: as §1

Binder	pseudovirus neutralization IC50
B1	1.58 µg/mL
B2	0.0157 µg/mL
B3	0.108 µg/mL
B4	> 10 µg/mL
B5	0.0361 µg/mL
B6	> 10 µg/mL
